Compound potency records, mixed from different reports. Data source: NIAID ChemDB in PubChem.

Common to all: growth or infection tests

Inhibition is in % at the dose shown (toxicity tests: loss of growth or viability). Fold resistance has wild type as its base. Blank or dashed fields: not listed here. Lines come from different laboratories, so protocols vary. ECn is the concentration giving n% inhibition of infection, replication or growth. MIC50, MIC90 and the like: level of inhibition, or share of isolates inhibited.

| smiles | mutations | method | species | endpoint | cell line | strain or isolate | tested at | value |
|---|---|---|---|---|---|---|---|---|
| OC[C@H]1O[C@@H](n2cnc3c(NC4CCCCCC4)ncnc32)C[C@@H]1O |  | cytopathic effect | Bovine herpesvirus 1 | EC50 | MDBK | IRB-LA |  | 50 µM |
| CCCCCCCCCC(=O)N[C@H]1[C@H](Oc2c3cc4cc2Oc2ccc(cc2Cl)[C@@H](O[C@@H]2O[C@H](CO)[C@@H](O)[C@H](O)[C@H]2NC(C)=O)[C@@H]2NC(=O)[C@H](NC(=O)[C@@H]4NC(=O)[C@H]4NC(=O)[C@@H](Cc5ccc(c(Cl)c5)O3)NC(=O)[C@H](N)c3ccc(O)c(c3)Oc3cc(O)cc4c3)c3ccc(O)c(c3)-c3c(O[C@H]4O[C@H](CO)[C@@H](O)[C@H](O)[C@@H]4O)cc(O)cc3[C@H](C(=O)O)NC2=O)O[C@H](CO)[C@@H](O)[C@@H]1O |  |  | Staphylococcus aureus | MIC50 |  | 25 strains (ofloxacin-resistant) |  | 1 µg/mL |
| O=C(OC1Cc2c(O)cc(O)cc2OC1c1cc(O)c(O)c(O)c1)c1cc(O)c(O)c(O)c1 |  | broth dilution | Candida tropicalis | MIC50 |  | Clinical isolate 2 |  | >128 µg/mL |
| Nc1ncnc2c1ncn2C[C@@H](CO)OCP(=O)(O)O |  | cytopathic effect | Adenovirus | EC50 |  | 13306 (TYPE 8) |  | 10 µg/mL |
| C#CC[C@@H](C(=O)N[C@H](/C=C/C(=O)OCC)C[C@@H]1CCNC1=O)n1cccc(NC(=O)c2cc(C)on2)c1=O |  | cytopathic effect / XTT | Rhinovirus | EC50 | H1-HELA | Serotype 28 |  | 0.098 µM |
| NC(=O)c1ncn([C@@H]2O[C@H](CO)[C@@H](O)[C@H]2O)n1 |  | plaque count | Respiratory syncytial virus | inhibition | HEP-2 | LONG | 1 µg/mL | 30% |
| C[C@H]1COc2c(N3CCN(C)CC3)c(F)cc3c(=O)c(C(=O)O)cn1c23 |  |  | Staphylococcus aureus | MIC50 |  | 25 strains (methicillin-susceptible) |  | 0.25 µg/mL |
| Nc1nccc2c1ncn2[C@@H]1C[C@H](CO)[C@@H](O)[C@H]1O |  | cytopathic effect | Vesicular stomatitis virus | EC50 | PRK |  |  | 0.2 µg/mL |
| Nc1ncnc2c1ncn2CCOCP(=O)(O)O |  | cytopathic effect | Varicella zoster virus | EC50 | HEL | Oka acyclovir-resistant |  | 18.7 µM |
| COc1cc(Cc2cnc(N)nc2N)cc(OC)c1Br |  |  | Mycobacterium ulcerans | MBC |  | Isolate 842 |  | 8 µg/mL |
| OC[C@H]1O[C@@H](n2cnc3c(NC4CC4)cc(Cl)nc32)C[C@@H]1O |  | cytopathic effect | Maedi-visna virus | EC50 | Sheep chondrocytes G81092 | KV1772 |  | 2.7 µM |
| COc1cc(Cc2cnc(N)nc2N)cc(OC)c1OC |  |  | Mycobacterium ulcerans | MIC |  | ATCC 35840 |  | >16 µg/mL |
| Nc1nc(Cl)nc2c1ncn2[C@@H]1O[C@H](CO)[C@@H](O)[C@H]1O |  | cytopathic effect | Maedi-visna virus | EC50 | Sheep chondrocytes G81092 | KV1772 |  | 15 µM |
| CN(C)c1ccc(O)c2c1C[C@H]1C[C@H]3[C@H](N(C)C)C(=O)C(C(N)=O)=C(O)[C@@]3(O)C(=O)C1=C2O |  |  | Staphylococcus aureus | MIC90 |  | 25 strains (ofloxacin-resistant) |  | 32 µg/mL |
| Nc1ccnc2c1ncn2[C@@H]1O[C@H](CO)C[C@H]1O |  | cytopathic effect | Bovine herpesvirus 1 | EC50 | MDBK | IRB-LA |  | >50 µM |
| NC(=O)c1ncn([C@@H]2O[C@H](CO)[C@@H](O)[C@H]2O)c1O |  | plaque count | Parainfluenza virus | EC50 | VERO | TYPE 2/GREER |  | 22.1 µg/mL |
| CO/N=C1\CN(c2nc3c(cc2F)c(=O)c(C(=O)O)cn3C2CC2)CC1CN |  |  | Staphylococcus aureus | MIC90 |  | 25 strains (methicillin-susceptible) |  | ≤0.06 µg/mL |
| Nc1ccn(C[C@@H](CO)OCP(=O)(O)O)c(=O)n1 |  | cytopathic effect | Adenovirus | EC50 |  | adenoid 6 (TYPE 2) |  | 8 µg/mL |
| COc1c(N2C[C@@H]3CCCN[C@@H]3C2)c(F)cc2c(=O)c(C(=O)O)cn(C3CC3)c12 |  |  | Haemophilus influenzae | MIC50 |  | 38 strains (ampicillin-susceptible) |  | 0.03 µg/mL |
| OC[C@@H]1C[C@@H](O)[C@H](n2cnc3c(NC4CCCCCC4)ccnc32)O1 |  | cytopathic effect | Maedi-visna virus | EC50 | Sheep chondrocytes G81092 | KV1772 |  | 0.5 µM |
| NC1CCN(c2nc3c(cc2F)c(=O)c(C(=O)O)cn3-c2ccc(F)cc2F)C1 |  |  | Haemophilus influenzae | MIC90 |  | 38 strains (ampicillin-susceptible) |  | 0.008 µg/mL |
| C[C@@]1(O)[C@H](O)[C@@H](CO)O[C@H]1c1c[nH]c2c(N)ncnc12 |  | MTT | Hepatitis C virus | inhibition | Hep3B-T5B |  | 50 µg/mL | 7.84% |
| O=C1N(Cc2ccc(CO)cc2)[C@H](Cc2ccccc2)[C@H](O)[C@@H](O)[C@@H](Cc2ccccc2)N1Cc1ccc(CO)cc1 | PR-L10R L63P V82T I84V | p24 | HIV-1 | EC95 | MT-4 | NL4-3 |  | 3 µM |
| C[C@@]1(O)[C@H](O)[C@@H](CO)O[C@H]1n1ccc2c(N)ncnc21 |  | MTT | Hepatitis C virus | inhibition | HepG2-T5B |  | 2 µg/mL | 6.15% |
| CC[C@H]1OC(=O)[C@H](C)[C@@H](O[C@H]2C[C@@](C)(OC)[C@@H](O)[C@H](C)O2)[C@H](C)[C@@H](O[C@@H]2O[C@H](C)C[C@H](N(C)C)[C@H]2O)[C@](C)(OC)C[C@@H](C)C(=O)[C@H](C)[C@@H](O)[C@]1(C)O |  | broth dilution | Mycobacterium massiliense | MIC |  | V150 |  | 1 µg/mL |
| Nc1nc2c(ncn2CCOCP(=O)(O)O)c(=O)[nH]1 |  | virus yield | Parainfluenza virus | EC90 |  | 14702 (TYPE 3) |  | 10 µg/mL |
| CC(C)(CO)C(=O)SCCOP(=O)(NCc1ccccc1)OC[C@H]1O[C@@H](n2cnc3c(=O)[nH]c(N)nc32)[C@](C)(O)[C@@H]1O | P32L | replicon | Hepatitis C virus | fold resistance | Replicon cells | GT1a |  | 0.89 |
| Nc1nc(=O)n2ccn([C@@H]3O[C@H](CO)[C@@H](O)[C@H]3O)c2n1 |  | cytopathic effect | Banzi virus | EC50 | VERO | H336 |  | 5 µg/mL |
| OC[C@H]1O[C@@H](n2cnc3c(NC4CC4)nc(Cl)nc32)C[C@@H]1O |  | cytopathic effect | Maedi-visna virus | EC50 | Sheep chondrocytes G81092 | KV1772 |  | 0.15 µM |
| NC(=O)c1ncn([C@@H]2O[C@H](CO)[C@@H](O)[C@H]2O)n1 |  | neutral red | Measles virus | EC50 | CV-1 | BIL |  | 100 µg/mL |
| OC[C@@H]1C[C@@H](O)[C@H](n2cnc3c(NC4CCCCC4)nc(Cl)cc32)O1 |  | cytopathic effect | Maedi-visna virus | EC50 | Sheep chondrocytes G81092 | KV1772 |  | 1.5 µM |
| COc1cc(C[C@H](C)[C@H](C)Cc2ccc(O)c(O)c2)ccc1O |  | broth dilution | Candida colliculosa | MIC50 |  | CCC 122-2000 |  | 31.25 µg/mL |
| CC(C)=CCN1c2cc(Cl)cc3[nH]c(=S)n(c23)C[C@@H]1C | RT-M41L T215Y Y181C |  | HIV-1 | EC95 | MT-4 |  |  | >3 µM |
| CC(C)(C)NC(=O)[C@@H]1C[C@@H]2CCCC[C@@H]2CN1C[C@@H](O)[C@H](Cc1ccccc1)NC(=O)[C@H](CC(N)=O)NC(=O)c1ccc2ccccc2n1 |  | p24 | HIV-1 | EC95 | MT-4 | NL4-3 |  | 0.025 µM |